Reference: PubChem BioAssay AID1259414 (Drosophila RNAi Screening Center, 2018)
In all, the deposit lists about 24,000 reagents; this is a random part of those with a known target gene and a result. In the full data, about 1,210 (5%) got an active call. 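Inactive calls also include excluded dsRNAs with several or no targets, genes unexpressed in JW18, and well A1, regardless of score.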 Reagents against one gene are numbered here. Names joined by + are all predicted targets of the reagent.

Test: 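Genome-wide screen for host control of endosymbiont load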 (primary screen)
System: Drosophila JW18 cells infected with Wolbachia
Reagents: long dsRNA against Drosophila genes, 0.25 µg dsRNA per well of a 384-well plate
Timing: 5 days
Conditions: cells persistently infected with Wolbachia before knock-down; no added drug
Detection: 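Automated imaging of bacterial rRNA staining divided by host cell count, reported as plate-normalised robust z-score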
Direction: Wolbachia per cell robust z: higher = more Wolbachia per host cell than the plate typical
Active means: 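Hit when robust z is 1.5 or more, or -1.5 or less, in at least two of three replicates; excludes dsRNAs with several or no targets, genes not expressed in JW18 and well A1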

| Target gene | reagent | Wolbachia per cell robust z, rep 1 | Wolbachia per cell robust z, rep 2 | Wolbachia per cell robust z, rep 3 | Outcome |
| --- | --- | --- | --- | --- | --- |
| CG34117 (GeneID 4379851) | 1 | -0.219 | 0.438 | 0.35 | inactive |
| X11Lbeta (GeneID 31997) | 1 | -0.791 | -2.03 | 0.25 | inactive |
| X11Lbeta (GeneID 31997) | 2 | -3.65 | -1.05 | 0.575 | inactive |
| X11Lbeta (GeneID 31997) | 3 | 0.635 | -3.2 | -0.139 | inactive |
| Nhe1 (GeneID 33167) | 1 | 1.26 | 1.28 | -0.611 | inactive |
| pins (GeneID 53569) | 1 | 0.447 | 0.688 | -1.49 | inactive |
| EloC (GeneID 37237) | 1 | 0.203 | -0.285 | -1.96 | inactive |
| EloC (GeneID 37237) | 2 | 1.17 | 1.49 | 1.26 | inactive |
| CG42727 + CG42726 | 1 | -0.283 | -2.13 | -0.179 | inactive |
| CG42727 + CG42726 | 2 | 0.0334 | 0.516 | 0.797 | inactive |
| Sin1 (GeneID 36604) | 1 | -0.795 | -0.836 | -0.664 | inactive |
| Np (GeneID 35904) | 1 | -0.681 | -0.291 | -0.387 | inactive |
| Np (GeneID 35904) | 2 | -1.76 | -2.02 | -1.34 | inactive |
| Letm1 (GeneID 37912) | 1 | 0.837 | -0.476 | 0.523 | inactive |
| lectin-28C (GeneID 53542) | 1 | -3.08 | -0.278 | -2.08 | inactive |
| lectin-28C (GeneID 53542) | 2 | -1.09 | -1.12 | 1.09 | inactive |
| Ca-beta (GeneID 34557) | 1 | -3.78 | -1.22 | -0.24 | inactive |
| Ca-beta (GeneID 34557) | 2 | -0.21 | -0.812 | 0.299 | inactive |
| Ca-beta (GeneID 34557) | 3 | -1 | -0.848 | -0.521 | inactive |
| Ca-beta (GeneID 34557) | 4 | 0.501 | 0.457 | -0.0556 | inactive |
| Ca-beta (GeneID 34557) | 5 | 1.02 | 0.941 | 0.978 | inactive |
| Ca-beta (GeneID 34557) | 6 | 1.16 | -5.02 | 0.732 | inactive |
| Trl + CG42507 | 1 | -1.07 | -1.89 | -0.243 | inactive |
| Trl + CG42507 | 2 | -2.33 | -2.75 | -1.34 | inactive |
| scrib (GeneID 44448) | 1 | -0.494 | 0.0456 | 0.721 | inactive |
| scrib (GeneID 44448) | 2 | -1.16 | 0.124 | 0.0546 | inactive |
| scrib (GeneID 44448) | 3 | 0.65 | -1.27 | 0.372 | inactive |
| scrib (GeneID 44448) | 4 | 0.422 | 0.0604 | 0.641 | inactive |
| scrib (GeneID 44448) | 5 | 0.396 | 2.66 | 0.235 | inactive |
| scrib (GeneID 44448) | 6 | -0.541 | -0.996 | -2.5 | inactive |

8 consecutive entries already listed, quoted:
| Target gene | reagent | Wolbachia per cell robust z, rep 1 | Wolbachia per cell robust z, rep 2 | Wolbachia per cell robust z, rep 3 | Outcome |
| --- | --- | --- | --- | --- | --- |
| X11Lbeta (GeneID 31997) | 1 | -0.791 | -2.03 | 0.25 | inactive |
| X11Lbeta (GeneID 31997) | 2 | -3.65 | -1.05 | 0.575 | inactive |
| X11Lbeta (GeneID 31997) | 3 | 0.635 | -3.2 | -0.139 | inactive |
| Nhe1 (GeneID 33167) | 1 | 1.26 | 1.28 | -0.611 | inactive |
| pins (GeneID 53569) | 1 | 0.447 | 0.688 | -1.49 | inactive |
| EloC (GeneID 37237) | 1 | 0.203 | -0.285 | -1.96 | inactive |
| EloC (GeneID 37237) | 2 | 1.17 | 1.49 | 1.26 | inactive |
| CG42727 + CG42726 | 1 | -0.283 | -2.13 | -0.179 | inactive |

Further entries follow.
| Target gene | reagent | Wolbachia per cell robust z, rep 1 | Wolbachia per cell robust z, rep 2 | Wolbachia per cell robust z, rep 3 | Outcome |
| --- | --- | --- | --- | --- | --- |
| Dcr-2 (GeneID 36993) | 1 | -3.54 | -1.38 | 0.195 | inactive |
| Dcr-2 (GeneID 36993) | 2 | -1.11 | 0.273 | -0.198 | inactive |
| I-t (GeneID 41414) | 1 | -0.363 | -4.96 | 1.42 | inactive |
| I-t (GeneID 41414) | 2 | 0.474 | 0.251 | 0.539 | inactive |
| CG6126 (GeneID 41967) | 1 | 0.833 | -3.26 | 0.8 | inactive |
| stops (GeneID 43683) | 1 | -0.677 | -0.437 | 0.084 | inactive |
| stops (GeneID 43683) | 2 | 0.58 | -0.44 | 0.161 | inactive |
| stops (GeneID 43683) | 3 | 0.185 | 0.194 | -5.27 | inactive |
| pho (GeneID 43819) | 1 | -1.18 | -2.26 | 0.679 | inactive |
| pho (GeneID 43819) | 2 | 0.351 | -1.14 | -0.525 | inactive |
| CG4293 (GeneID 31001) | 1 | 0.341 | -1.09 | 0.374 | inactive |
| CG10651 (GeneID 35303) | 1 | -4.7 | -0.139 | -8.01 | inactive |
| CG33463 (GeneID 2768844) | 1 | 0.00607 | 0.492 | 0.307 | inactive |
| CG33463 (GeneID 2768844) | 2 | 0.644 | -0.437 | 0.89 | inactive |
| Nepl6 (GeneID 33893) | 1 | 0.195 | 0.38 | 0.0827 | inactive |
| Nepl6 (GeneID 33893) | 2 | -0.454 | -0.209 | 0.85 | inactive |
